Results of unrelated studies side by side (data: NIAID ChemDB).

All rows: whole-cell or culture tests; agent: Influenza A virus

ECn is the concentration giving n% inhibition of infection, replication or growth. An empty or dashed field is not shown. Conditions beyond the fields shown may differ between rows.

smiles,cell line,strain or isolate,measure,result
CCCN(CCc1cccc(OC)c1)C(=O)[C@@H]1OC(C(=O)O)=C[C@H](N)[C@H]1NC(C)=O,,A/Singapore/1/57,EC50,0.0004 µg/mL
CCOC(=O)C1=C[C@@H](OC(CC)CC)[C@H](NC(C)=O)[C@@H](N)C1,MDCK,H5N1 A/chicken/Thailand/3/04,EC50,22.35 µM
CC(=O)N[C@H]1[C@H]([C@H](O)[C@H](O)CO)OC(C(=O)O)=C[C@@H]1N=C(N)N,MDCK,H7N2 A/turkey/England/192-329/79,EC90,≥1 µM
OC1(C23CC4CC(CC(C4)C2)C3)CC=NO1,Chick embryo fibroblasts,H7N1 A/Rostock/34,EC50,16.35 µg/mL
CCCCCCCCCN(CCC)C(=O)[C@@H]1OC(C(=O)O)=C[C@H](N=C(N)N)[C@H]1NC(C)=O,,A/Singapore/1/57,EC50,0.002 µg/mL
C1Cc2noc(C34CC5CC(CC(C5)C3)C4)c2C1,Chick embryo fibroblasts,H7N1 A/Rostock/34,EC50,145 µg/mL
CN1CCc2cc3c(cc2C(=O)Cc2ccc4c(c2C1)OCO4)OCO3,CEF,A/Weybridge,EC50,>60 µM
CCC(CC)[C@H](NC(C)=O)[C@@H]1[C@H](O)[C@@H](C(=O)O)C[C@H]1N=C(N)N,MDCK,H3N2 TOKYO/3/67,EC50,0.0055 µM
CCCN(CCc1ccc(Cl)cc1Cl)C(=O)[C@@H]1OC(C(=O)O)=C[C@H](N)[C@H]1NC(C)=O,,A/Singapore/1/57,EC50,0.00001 µg/mL
C=C[C@@H](O)C1=C[C@@H](n2cnc3c(N)ncnc32)[C@H](O)[C@@H]1O,MDCK,H2N2 JAPAN 57,EC50,>50 µg/mL
[N-]=C=Nc1nncs1,MDCK,H7N7 A/Gendon,EC50,<10 µg/mL
Clc1nc(CC23CC4CC(CC(C4)C2)C3)cs1,Chick embryo fibroblasts,H7N1 A/Rostock/34,EC50,21.09 µg/mL
CCCN(CCc1cccc(O)c1)C(=O)[C@@H]1OC(C(=O)O)=C[C@H](N)[C@H]1NC(C)=O,,A/Singapore/1/57,EC50,0.0002 µg/mL
CCC(CC)[C@H](NC(C)=O)[C@@H]1C[C@@H](C(=O)O)C[C@H]1N=C(N)N,MDCK,H5N1 A/duck/MN/1525/81,EC50,0.022 µM
C=C[C@H](O)C1=C[C@@H](n2cnc3c(N)ncnc32)[C@H](O)[C@@H]1O,MDCK,H2N2 X31,EC50,>250 µg/mL
CCCC(CCC)C(NC(C)=O)C1C(N=C(N)N)CC(C(=O)O)C1O,MDCK,H5N1 A/duck/MN/1525/81,EC50,0.02 µM
Nc1nc2c(ncn2[C@@H]2O[C@H](CO)[C@@H](O)[C@H]2F)c(=O)[nH]1,MDCK,H2N2 A/Singapore/1/57,EC50,8 µM
C#C[C@H](O)C1=C[C@@H](n2cnc3c(N)ncnc32)[C@H](O)[C@@H]1O,MDCK,H2N2 X31,EC50,>50 µg/mL

For reference, 2 entries again:

| smiles | cell line | strain or isolate | measure | result |
|---|---|---|---|---|
| C#C[C@H](O)C1=C[C@@H](n2cnc3c(N)ncnc32)[C@H](O)[C@@H]1O | MDCK | H2N2 X31 | EC50 | >50 µg/mL |
| CCCC(CCC)C(NC(C)=O)C1C(N=C(N)N)CC(C(=O)O)C1O | MDCK | H5N1 A/duck/MN/1525/81 | EC50 | 0.02 µM |